Tested on: Escherichia coli
Test: Resistance index, ratio of MIC for antibacterial activity against Escherichia coli ATCC 25922 treated over 35 serial passage by sequential passaging method to MIC for antibacterial activity against Escherichia coli ATCC 25922 incubated for 18 to 24 hrs by broth microdilution method
Format: functional

CC(C)C[C@H](NC(=O)[C@H](CCCNC(=N)N)NC(=O)[C@H](Cc1c[nH]c2ccccc12)NC(=O)[C@H](CCCNC(=N)N)NC(=O)[C@@H](NC(=O)[C@H](CCCCN)NC(=O)[C@H](Cc1c[nH]c2ccccc12)NC(=O)[C@H](CCCNC(=N)N)NC(=O)[C@H](CC(C)C)NC(=O)[C@H](CCCNC(=N)N)NC(=O)[C@@H](N)Cc1c[nH]c2ccccc12)[C@@H](C)O)C(=O)N[C@@H](CCCCN)C(N)=O was tested, and the Ratio was 1 - 2.
